Test results: patent US6977269B1, “Method of improving animal tissue quality” (Pioneer Hi-Bred International, Inc, priority 2001, dated 2005)

Test system: Lactic acid bacteria
Assay: Lactic acid bacteria population on pork loins
Format: in vivo
Settings: plate count calculated as Log10 CFU/CM^2

Structure (SMILES) | Lactic acid bacteria population (450 IU/kg treatment) | Lactic acid bacteria population (300 treatment)
Cc1c(C)c2c(c(C)c1O)CC[C@@](C)(CCC[C@H](C)CCC[C@H](C)CCCC(C)C)O2 [Alpha-tocopherol, alpha-tocopherol, reference compound] | 6.84×10^0 | –
Cc1c(O)cc2c(c1C)O[C@](C)(CCC[C@H](C)CCC[C@H](C)CCCC(C)C)CC2 [Gamma-tocopherol, gamma-tocopherol] | 1.07×10^1 | 2.13×10^2
